Measurements as given in paper PMC10083355.

Experiments:
[1] = target: FleQ (Pseudomonas syringae pv. tomato DC3000) (UniProt Q884Y2); test: EMSA; details: 1 uM FleQ, no nucleotide; STAD: 25 mM Tris-acetate pH 8.0, 8 mM Mg-acetate, 10 mM KCl, 3.5% PEG-8000, 1 mM DTT, 10 ug/ml poly(dI-dC), 200 ug/ml BSA; 30 min at 4 C; recombinant protein; label: 5'-32P; probe letters rebuilt from the primers and the genome
[2] = target: FleQ (Pseudomonas syringae pv. tomato DC3000) (UniProt Q884Y2); test: DMS footprinting; details: no nucleotide, G-76, G-79, G-90 top protected, G-88, G-89 bottom hyperreactive; STAD: 25 mM Tris-acetate pH 8.0, 8 mM Mg-acetate, 10 mM KCl, 3.5% PEG-8000, 1 mM DTT, 10 ug/ml poly(dI-dC), 200 ug/ml BSA; 30 min at 4 C; recombinant protein; label: 5'-32P; probe letters rebuilt from the primers and the genome
[3] = target: FleQ (Pseudomonas syringae pv. tomato DC3000) (UniProt Q884Y2); test: DNase I footprinting; details: no nucleotide, about 100 bp protected; STAD: 25 mM Tris-acetate pH 8.0, 8 mM Mg-acetate, 10 mM KCl, 3.5% PEG-8000, 1 mM DTT, 10 ug/ml poly(dI-dC), 200 ug/ml …; 30 min at 4 C; recombinant protein; label: 5'-32P; probe letters rebuilt from the primers and the genome

Measured: binding result

TGGTTGCTCGATAGACGGCTGAGAGGTCGCGCGTTGCAGTGCAACAGACGGGGTGCTGGAAACGGAAGATTCCTGATAATCCAGGCTGTTGTCCGTCTCCAGATAACCGTCCGAGCTCGCGCCGAAACGTTGAAACAGATTGGCCACATCGTCAGCACGACTCATTCTGTACGACCTCAATTGGGGCCACCAGGCACAACCCCAGTGGAAAAGCATTAATACTAATGTGTAATGTCATTGTGACAGTGTCAATAAACCGATATATGGCGTCCACAATTTACCGATGAGCGGTAAATTACTCGTTTTTCGACATTTTATTGGCGCTACAAAATTGTAGATCTGGAGACAATCGGGGGCAAACGGGGCTGATTCGAGGGTTTTACGCACTTGCGGCTATATATCCTATGGATCGGATATATAGCCGCTCAAGGGGAGGATCGAATTAAATCAGTGGCTGG (double strand) [wssA1-2 (PwssA promoter fragment)]
binds: all assays above

The exact form of at least one protein or probe is not confirmed.
